This data set has as its target T1, Spo0A-DBD-6xHis (Clostridium difficile 630Δerm) (UniProt I6ZTX1).
T1 sequence: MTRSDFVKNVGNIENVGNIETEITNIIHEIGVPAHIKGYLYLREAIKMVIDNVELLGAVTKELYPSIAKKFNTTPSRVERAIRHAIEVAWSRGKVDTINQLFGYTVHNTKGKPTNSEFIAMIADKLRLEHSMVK
Description: EMSA. As to conditions: EMSA: 10 mM Tris-HCl pH 7.6, 1 mM EDTA, 50 mM NaCl, 1 mM DTT, 5% glycerol, 200 ug/mL BSA, 200 cpm/uL 32P-DNA, 20 min at 30 C; 8% native PAGE in 1x TAE; recombinant protein; protein details: C-terminal 6xHis; label: 32P 5' end; probe letters rebuilt from the primers and the genome. Background: A gel shift assay detects complexes by their altered migration in electrophoresis.

For at least one entry, the source does not settle the construct or the ends of the probe.

The results in this text go back to publication PMC3485338.

As to “GACAATTGTCCACTAACTCATAACTTTTTTCTTTTGCTACCAACATGTAAATCTCCCCCATATATAAAACAAATTTATAGGTATATTATAGTCTAAAGAACCTAGTAATTTCAACGCTTTCTACGAATGTTCTCAAGTTTCGACAATGTTTCTTTATCTAACCTTTCCTCCAACCAATTTCGCTGAATTTTTTTCCTCAAACCGATATTTTTTTCCTTCATTTTATTCTTGGAACGATCTAACTCTAACTTTAGTTCTCTTGCAGACATTCTAGTAGCACC (double strand) [PsigH]”, the binding result is listed as “binds”.
